Taken from: PubChem BioAssay AID1259414 (Drosophila RNAi Screening Center, 2018)
In all, the deposit lists about 24,000 reagents; this is an unselected part of those with a known target gene and a result. Over the whole deposit, about 1,210 (5%) were called active. 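Inactive calls also include excluded dsRNAs with several or no targets, genes unexpressed in JW18, and well A1, regardless of score.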 Reagent sequences are not shown.

- Test: 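Host factors increasing or decreasing Wolbachia levels in cultured fly cells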 (primary screen)
- Cells: Drosophila JW18 cells infected with Wolbachia
- Knock-down reagent: long dsRNA against Drosophila genes, 0.25 µg dsRNA per well of a 384-well plate
- Duration: 5 days
- Treatment: cells persistently infected with Wolbachia before knock-down; no added drug
- Read-out: 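Imaged fluorescence in situ signal for Wolbachia 23S rRNA per DAPI-counted host cell, given as a robust z-score within each plate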
- Reading the numbers: Wolbachia per cell robust z: higher = more Wolbachia per host cell than the plate typical
- Rule for the call: 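Active if absolute robust z reaches 1.5 in two or more of three replicates, leaving out multi- or no-target dsRNAs, genes unexpressed in JW18 and A1 wells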

Gene,DRSC id,"Wolbachia per cell robust z, rep 1","Wolbachia per cell robust z, rep 2","Wolbachia per cell robust z, rep 3",Call
snk,DRSC17060,-1.92,0.302,-0.0339,inactive
CG7920,DRSC16346,-0.636,-0.0561,-0.526,inactive
CG7920,DRSC21594,-0.288,-1.13,0.206,inactive
5-HT2A,DRSC11990,0.155,0.36,-0.742,inactive
SMC3,DRSC20227,-2.6,-0.222,-3.86,active
Gpb5,DRSC21241,0.398,-0.141,-0.451,inactive
betaNACtes2,DRSC19792,-0.36,-1.05,-1.46,inactive
betaNACtes2,DRSC41533,-0.506,0.257,-0.879,inactive
Gld2,DRSC23037,0.557,0.937,-3.26,inactive
Gld2,DRSC27759,-1.33,-2.31,0.154,inactive
Kdm2,DRSC14286,-3.4,-2.52,0.954,active
ScsbetaA,DRSC14446,0.366,0.502,0.993,inactive
ScsbetaA,DRSC27770,-0.00923,-0.643,-1.46,inactive
Polr3C,DRSC14490,-0.602,-0.947,0.299,inactive
Polr3C,DRSC28198,0.696,0.273,0.451,inactive
CG4866,DRSC06899,-0.0382,0.856,0.671,inactive
CG6749,DRSC10704,-2.22,0.534,-0.0902,inactive
lncRNA:CR43151,DRSC40509,-0.286,-1.79,-1.6,inactive
CG14500,DRSC06471,0.358,-0.245,-2.38,inactive
CG14500,DRSC41519,1.17,0.188,0.771,inactive
CG31224,DRSC15272,-0.215,0.382,-0.101,inactive
CG31224,DRSC16290,0.289,-0.973,0.55,inactive
fwe,DRSC10594,0.813,0.624,0.727,inactive
fwe,DRSC21400,0.248,0.251,0.0421,inactive
CG32104,DRSC10127,-1.36,-1.16,-0.613,inactive
CG32104,DRSC10128,-3.12,-6.25,-1.54,active
Dup99B,DRSC22877,0.414,-3.9,-4.39,inactive
Dup99B,DRSC29633,0.376,0.0419,-0.219,inactive
